Laboratory results published in patent publication US6461863 (UNIVERSITY OF WYOMING, dated 2002).

Molecular target: Ricinus communis agglutinin (RCA), digoxigenylated lectin (Ricinus communis, UniProt P06750 25-290; P06750 303-564)
Test: lectin blot of immunoprecipitated t-PA

B1: human tissue plasminogen activator produced in Sf9 cells infected with Ac941t-PA (enzyme)
chain: not shown
B1: no binding.
